This is an account of results in publication PMC5940772 (Nature Communications, 2018).

One may read the stoichiometry N as a count of units in the complex or per binding partner.

The series deals with the molecule itself.

Substitutions are numbered along the chain they refer to. In names and notes the source's numbering stands.

B1: NS1-FL (W187A), strain A/Puerto Rico/8/1934 H1N1 (natural protein)
chain: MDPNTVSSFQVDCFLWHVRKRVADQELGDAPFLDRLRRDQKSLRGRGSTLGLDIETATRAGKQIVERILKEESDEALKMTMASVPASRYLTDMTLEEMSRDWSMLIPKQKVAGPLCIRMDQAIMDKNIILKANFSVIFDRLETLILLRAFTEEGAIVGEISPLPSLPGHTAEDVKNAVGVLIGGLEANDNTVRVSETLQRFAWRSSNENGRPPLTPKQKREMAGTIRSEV
For the protein B1, the “stoichiometry N” value turned out to be 2.

B2: NS1-FL (R38A/K41A/W187A), strain A/Puerto Rico/8/1934 H1N1 (natural protein)
chain: B1 chain with R38A, K41A
As to B2, the “stoichiometry N” value stood at 2.
